Results reported in patent US20090298774A1.

Target: gp41 of HIV-1 IIIB (subtype B, X4) (HIV-1 IIIB)
Experiment: cell-based or functional assay

For T1144 (peptide), the IC50, HIV-1 IIIB-mediated cell fusion was 5.2 nM, the IC50, HIV-1 replication, IIIB (B, X4) was 13 nM and the IC90, HIV-1 IIIB-mediated cell fusion was 10.2 nM. It also gave an IC90, HIV-1 replication, IIIB (B, X4) of 65.7 nM.
